Measured values from several laboratories, pooled; numbers as filed in NIAID ChemDB.

All rows: tests in culture; agent: Sindbis virus

ECn is the concentration giving n% inhibition of infection, replication or growth. Neighbouring rows are from separate reports.

O=C(NS(=O)(=O)OC[C@H]1O[C@@H](n2ccc(=O)[nH]c2=O)[C@H](O)[C@@H]1O)O[C@H]1O[C@H](COC(=O)c2ccccc2)[C@@H](OC(=O)c2ccccc2)[C@H](OC(=O)c2ccccc2)[C@@H]1OC(=O)c1ccccc1 ; measure: EC50 ; cells: VERO ; method: plaque count ; result: >200 µg/mL
CC(=O)OCCOCN1C(C)=CC(N)=[N+](c2ccccc2)S1(=O)=O ; measure: EC50 ; cells: VERO ; result: >400 µg/mL
CC(C)O[C@@H]1[C@H](OC(C)C)[C@@H](COS(=O)(=O)NC(=O)O[C@@H]2C[C@@H](OC(=O)c3ccccc3)C[C@@H](COC(=O)c3ccccc3)O2)O[C@H]1n1ccc(=O)[nH]c1=O ; measure: EC50 ; cells: VERO ; method: plaque count ; result: >200 µg/mL
CCn1nc(Cc2n[nH]c(=S)o2)nc1C ; measure: MIC ; result: >400 µg/mL
COC(=O)[C@]1(C)CCC[C@]2(C)c3cc(Br)c4nc(C(F)(F)F)[nH]c4c3CCC12 ; measure: EC50 ; cells: VERO ; method: plaque count ; result: >4 µg/mL
CCn1nc(-c2ccc(Cn3ccc4ccccc43)cc2)nc1C ; measure: MIC ; result: >80 µg/mL
CC(C)O[C@@H]1[C@H](OC(C)C)[C@@H](COS(=O)(=O)NC(=O)O[C@@H]2C[C@@H](OC(=O)c3ccccc3)[C@H](OC(=O)c3ccccc3)[C@@H](COC(=O)c3ccccc3)O2)O[C@H]1n1ccc(=O)[nH]c1=O ; measure: EC50 ; cells: VERO ; method: plaque count ; result: 100 µg/mL
Nc1nc2c(ccn2[C@@H]2C[C@H](CO)[C@@H](O)[C@@H]2O)c(=O)[nH]1 ; measure: MIC ; result: >100 µg/mL
O=C1C=CN(COCCO)S(=O)(=O)N1COCCO ; measure: EC50 ; cells: VERO ; result: >400 µg/mL
COC(=O)[C@]1(C)CCC[C@]2(C)c3cc(Br)c4nc[nH]c4c3CCC12 ; measure: EC50 ; cells: VERO ; method: plaque count ; result: >4 µg/mL
CC(=O)OCCOCN1C=CC(=O)N(COCCOC(C)=O)S1(=O)=O ; measure: EC50 ; cells: VERO ; result: >400 µg/mL
Cc1nc(CC(=O)NN)nn1C ; measure: MIC ; result: >80 µg/mL
CC1=CC(=O)N(c2ccccc2)S(=O)(=O)N1COCCO ; measure: EC50 ; cells: VERO ; result: >400 µg/mL
COc1ccc(-n2c(Cc3nc4n(n3)CCCC4)n[nH]c2=S)cc1 ; measure: MIC ; result: >400 µg/mL
CC(=O)OCCOCN1C(=O)C=CN(COCCO)S1(=O)=O ; measure: EC50 ; cells: VERO ; result: >400 µg/mL
CC(C)O[C@@H]1[C@H](OC(C)C)[C@@H](COS(=O)(=O)NC(=O)O[C@H]2O[C@H](COC(=O)c3ccccc3)[C@@H](OC(=O)c3ccccc3)[C@H](OC(=O)c3ccccc3)[C@@H]2OC(=O)c2ccccc2)O[C@H]1n1ccc(=O)[nH]c1=O ; measure: EC50 ; cells: VERO ; method: plaque count ; result: 40 µg/mL
S=c1[nH]nc(Cc2nc3n(n2)CCCCC3)o1 ; measure: MIC ; result: >80 µg/mL
Nc1nccc2c1ncn2[C@@H]1C[C@H](CO)[C@@H](O)[C@H]1O ; measure: MIC ; result: >400 µg/mL
CC(C)OC1[C@H](n2ccc(=O)[nH]c2=O)O[C@H](COS(=O)(=O)NC(=O)N[C@H]2O[C@H](COCc3ccccc3)[C@@H](OCc3ccccc3)[C@H](OCc3ccccc3)[C@H]2OCc2ccccc2)[C@H]1OC(C)C ; measure: EC50 ; cells: VERO ; method: plaque count ; result: 75 µg/mL
COC(=O)[C@]1(C)CCC[C@]2(C)c3ccc4nc(-c5ccccc5)c(-c5ccccc5)nc4c3CCC12 ; measure: EC50 ; cells: VERO ; method: plaque count ; result: >4 µg/mL
CC(C)O[C@@H]1[C@H](OC(C)C)[C@@H](COS(=O)(=O)NC(=O)O[C@H]2O[C@H](COC(=O)c3ccccc3)[C@H](OC(=O)c3ccccc3)[C@H](OC(=O)c3ccccc3)[C@H]2OC(=O)c2ccccc2)O[C@H]1n1ccc(=O)[nH]c1=O ; measure: EC50 ; cells: VERO ; method: plaque count ; result: 100 µg/mL
COC(=O)[C@]1(C)CCC[C@]2(C)c3cc(Br)c4nc(C)[nH]c4c3CCC12 ; measure: EC50 ; cells: VERO ; method: plaque count ; result: >4 µg/mL
CC(C)O[C@@H]1[C@H](OC(C)C)[C@@H](COS(=O)(=O)NC(=O)O[C@H]2C[C@@H](OC(=O)c3ccccc3)[C@H](OC(=O)c3ccccc3)[C@@H](COC(=O)c3ccccc3)O2)O[C@H]1n1ccc(=O)[nH]c1=O ; measure: EC50 ; cells: VERO ; method: plaque count ; result: >100 µg/mL
Nc1nccc2c1ncn2[C@@H]1C=C(CO)[C@@H](O)[C@H]1O ; measure: MIC ; result: >400 µg/mL

For reference, 2 entries again:

CC(C)O[C@@H]1[C@H](OC(C)C)[C@@H](COS(=O)(=O)NC(=O)O[C@@H]2C[C@@H](OC(=O)c3ccccc3)[C@H](OC(=O)c3ccccc3)[C@@H](COC(=O)c3ccccc3)O2)O[C@H]1n1ccc(=O)[nH]c1=O ; measure: EC50 ; cells: VERO ; method: plaque count ; result: 100 µg/mL
S=c1[nH]nc(Cc2nc3n(n2)CCCCC3)o1 ; measure: MIC ; result: >80 µg/mL